The assay deals with B.1.1.529 Omicron variant spike protein on recombinant USA-WA1/2020 virus (SARS-CoV-2). The assay can be described thus: cell-based or functional assay.

As to “IgG antibody carrying the VH and VL regions of Sotrovimab (S309)”, the Neutralization EC50 worked out at 0.73 µg/mL.
